This experiment has as its target T1, CD8/zeta chimera (human).
T1 construct: range […];range […]; CD8/? chimeric receptor
Briefly: immunoprecipitation from surface-iodinated digitonin lysates; TCR down modulation with C305.

B1: CD3 gamma (receptor, human, UniProt P09693 23-182, looked up)
chain: QSIKGNHLVKVYDYQEDGSVLLTCDAEAKNITWFKDGKMIGFLTEDKKKWNLGSNAKDPRGMYQCKGSQNKSKPLQVYYRMCQNCIELNAATISGFLFAEIVSIFVLAVGVYFIAGQDGVRQSRASDKQTLLPNDQLYQPLKDREDDQYSHLQGNQLRRN
notes: whole, on cells; also called CD3 γ
Take B1: the binding result was “no binding”.

B2: CD3 delta (receptor, human, UniProt P04234 22-171, looked up)
chain: FKIPIEELEDRVFVNCNTSITWVEGTVGTLLSDITRLDLGKRILDPRGIYRCNGTDIYKDKESTVQVHYRMCQSCVELDPATVAGIIVTDVIATLLLALGVFCFAGHETGRLSGAADTQALLRNDQVYQPLRDRDDAQYSHLGGNWARNK
notes: whole, on cells; also called CD3 δ
As for B2, the binding result is listed as “no binding”.

B3: CD3 epsilon (receptor, human, UniProt P07766 23-207, looked up)
chain: DGNEEMGGITQTPYKVSISGTTVILTCPQYPGSEILWQHNDKNIGGDEDDKNIGSDEDHLSLKEFSELEQSGYYVCYPRGSKPEDANFYLYLRARVCENCMEMDVMSVATIVIVDICITGGLLLLVYYWSKNRKAKAKPVTRGAGAGGRQRGQNKERPPPVPNPDYEPIRKGQRDLYSGLNQRRI
notes: whole, on cells; also called CD3 ε; CD3 ε subunit of the TCR
As for B3, the binding result is “no binding”.
